{
  "source": "patent US9464255B2",
  "about": "“Maleinized ester derivatives” (Elevance Renewable Sciences, Inc., priority 2013, dated 2016)",
  "test_system": "activated sludge (microbial inoculum)",
  "assay": "Aerobic biodegradability in water containing mineral salts and activated sludge (CO2 evolution, DOC)",
  "conditions": "for mean % ThCO2: corrected for background CO2 from the controls",
  "procedure": "A maleinized ester derivative in the form of hydrogenated 1-pentyl triester of maleinated-9-dodecene methyl ester (hereinafter the “test substance”) is evaluated for aerobic biodegradability in water containing mineral salts and activated sludge. The activated sludge is taken from a wastewater treatment plant and is used as a source of microbial inoculum. The objectives of the study are: 1) to evaluate the biodegradability (mineralization to CO2 production) potential of the test substance in an aerobic, aqueous medium; and 2) to determine the mineralization potential of a reference chemical in order to assess the viability of the test inoculum.\nApproximately one liter of activated sludge is used as the microbial inoculum. The sludge is collected from the Columbia Wastewater Plant in Columbia, Miss. This plant treats predominately domestic sewage.\nAn aqueous mineral salts medium provides essential mineral nutrients and trace elements necessary to sustain the inoculum throughout the test period. The mineral salts medium is prepared by addition of reagent grade salts to reagent water. The mineral salts include salts of K, Na, NHa, Ca, Mg and Fe. The pH of the mineral salts medium is 7.27.\nEach test system consists of a 5-L Pyrex carboy (reaction flask or vessel) containing a 3.0 L test solution volume comprised of mineral salts medium, prepared microbial inoculum, reagent water, and the appropriate test and/or reference substance additions. Outside air is passed through a pre-trap containing 500 mL of approximately 5 N KOH. The air is then passed through approximately 500 mL of reagent water to humidify the air, as well as to prevent contamination of the flasks from the KOH pre-trap. The CO2-free and humidified air is then passed through the reaction flasks.\nThe CO2-free air is introduced into each flask by positive pressure, and the flow rates (50-100 mL/minute) are measured and adjusted using flow meters. The outlet from each flask is connected to three CO2 absorber gas-washing traps in series, each filled with 100 mL of 0.2 N KOH solution. These traps capture the CO2 evolved from the reaction flasks. A magnetic stir bar is placed in each flask. The flasks are placed on insulated magnetic stir plates and stirred throughout the duration of the study. The test systems are kept in the dark (except for sampling and maintenance) in a temperature-controlled environmental chamber set at 22° C. Temperature of the chamber is continuously measured using a Rees Scientific temperature monitoring system.\nThe activated sludge is homogenized in a blender at a medium speed for two minutes. The homogenized sludge is allowed to settle for 30 to 60 minutes then filtered through glass wool. A volume of 30 mL of the filtrate is used as the inoculum for each reaction flask.\nOne day prior to dosing, six test systems are assembled. Each 5-L carboy receives 2,400 mL of mineral salts medium and 30 mL of the prepared activated sludge. Stirring and aeration with CO2-free air at approximately 90 mL/minute is started for each flask. The flasks are allowed to aerate overnight to purge the systems of CO2 before initiation of the test (dosing on Day 0).\nDuplicate test substance systems are prepared by adding 570 mL of reagent water and approximately 42.2 mg (dosed gravimetrically) of the test substance to two of the 5-L carboys. The nominal concentration of carbon from the test substance in the final volume of 3,000 mL of solution is 10 mg C/L.\nThe reference substance system is prepared by adding 467 mL of reagent water and 103 mL of the 1.00-mg/mL reference substance stock solution to a 5-L carboy. The nominal concentration of carbon from the reference substance in the final volume of 3,000 mL of solution is 20 mg C/L.\nThe nominal concentration of carbon from the toxicity system in the final volume of 3,000 mL of solution is 30 mg C/L.\nAfter all additions, each of the reaction flasks are connected to a series of three traps containing 100 mL of 0.2 N KOH. […]",
  "data": [
    {"substance": "hydrogenated 1-pentyl triester of maleinated-9-dodecene methyl ester [test substance]", "values": [
      {"measurement": "biodegradability classification", "setting": ">60% ThCO2 within a 10-day window", "result": "readily biodegradable"},
      {"measurement": "mean % ThCO2", "setting": "Day 9, mean of replicates", "result": 15.8, "unit": "%"},
      {"measurement": "mean % ThCO2", "setting": "Day 19, mean of replicates", "result": 71.6, "unit": "%"},
      {"measurement": "% ThCO2", "setting": "Day 19, replicate A", "result": 63.8, "unit": "%"},
      {"measurement": "% ThCO2", "setting": "Day 19, replicate B", "result": 79.4, "unit": "%"},
      {"measurement": "corrected DOC concentration at termination", "setting": "Day 28", "result": 3.35, "unit": "mg C/L"}
    ]}
  ]
}
